These results are taken from ChEMBL document CHEMBL3351919, “Structure-based design of potent and selective Leishmania N-myristoyltransferase inhibitors” (2014).

A value given as a limit tells only on which side of the number the result lay.

In one series the test system is Leishmania donovani. As to the kind of experiment: Antileishmanial activity against Leishmania donovani amastigotes assessed as growth inhibition after 72 hrs by alamar blue fluorescence assay. A general note: Alamar Blue is a resazurin reagent that responds to reducing activity.
A short description of series [1]: Inhibition of Leishmania major N-myristoyltransferase using GSNKSKPKDASQRRR-NH2 as substrate by CPM fluorescence assay.
Series [2] is described as follows: Cytotoxicity against mouse BMDM after 72 hrs by alamar blue fluorescence assay. The settings on record: read-out: LD50.
A short description of series [3]: Inhibition of Leishmania donovani N-myristoyltransferase using GSNKSKPKDASQRRR-NH2 as substrate by CPM fluorescence assay.

As usually defined, the EC50 is the concentration at which the effect is half-maximal. The IC50 is the point on the concentration scale where inhibition reaches its midpoint. Usually Ki stands for a measure of affinity in units of concentration, obtained from inhibition or displacement. Read a low Ki as higher affinity.

For the compound `N[C@@H](CC(=O)N1C[C@H](CO)[C@@H](c2ccc(Cl)cc2)C1)Cc1ccc(Cl)cc1`, the half-maximal effective concentration (EC50) in the series with Leishmania donovani was determined as 10 µM. The same compound gave an IC50 in series [1] of 0.031 µM. The CC50 in series [2] stood at 8 µM. Besides, in series [3], the IC50 came to 0.025 µM and the Ki is 0.017 µM.

With `CC(=O)Nc1cc([C@H]2CN(C(=O)C[C@H](N)Cc3ccc(Cl)cc3)C[C@@H]2CO)ccc1Cl`, the EC50 with Leishmania donovani was > 50 µM. Moreover, in series [2], the CC50 was > 90 µM. For the same compound, the inhibitory constant (Ki) in series [3] came out at 0.11 µM.

For `N[C@@H](CC(=O)N1C[C@H](CO)[C@@H](c2ccc(Cl)c(NC(=O)Cc3ccc(F)cc3)c2)C1)Cc1ccc(Cl)cc1`, the EC50 with Leishmania donovani stood at 10 µM. The CC50 in series [2] amounted to 12 µM.

Regarding `N[C@@H](CC(=O)N1C[C@@H](CO)[C@H](c2ccc(Cl)cc2)C1)Cc1ccc(Cl)cc1`, the EC50 in the series with Leishmania donovani came out at 10 µM. Also, in series [2], the CC50 turned out to be 12 µM. Further, in series [3], the concentration for half-maximal inhibition (IC50) was 1.7 µM and the Ki came out at 1.41 µM.

With `O=C(Cc1ccc(F)cc1)Nc1ccc2[nH]cc(C3CCNCC3)c2c1`, the EC50 in the series with Leishmania donovani was > 30 µM. Inhibition in series [1] was half-maximal at 0.55 µM (IC50). The CC50 in series [2] was > 45 µM.

Consider `O=C(Cc1ccc(F)cc1)Nc1cc([C@H]2CN(C(=O)CC(O)Cc3ccc(Cl)cc3)C[C@@H]2CO)ccc1Cl` (stereo not given in full), for which, in the series with Leishmania donovani, the EC50 worked out at 10 µM. Also, in series [2], the CC50 is > 24 µM. In series [3], this compound displayed an inhibition constant (Ki) of 0.059 µM.
